Data taken from article PMC9131872, “Structural Insight into Molecular Inhibitory Mechanism of InsP6 on African Swine Fever Virus mRNA-Decapping Enzyme g5Rp” (2022).

Columns and labels:
[1] = tested on: g5Rp-ΔC (helical domain, residues 36 to 124), African swine fever virus (ASFV), P32092 36-124; experiment: cross-linking
[2] = tested on: g5Rp-ΔN (Nudix domain, connecting residues 1 to 35 and 125 to 250 directly), African swine fever virus (ASFV), P32092 1-250; experiment: cross-linking

Substance	stoichiometry N [1]	stoichiometry N [2]
g5Rp-ΔC (helical domain, residues 36 to 124)	2	
g5Rp-ΔN (Nudix domain, connecting residues 1 to 35 and 125 to 250 directly)		2
